A mixed list of measured activities; the numbers were collected in NIAID ChemDB.

Common to all: growth or infection tests; species: HIV-1; cells: MT-4; read-out: EC50

Neighbouring rows are from separate reports.

SMILES | strain | changes | method | setting | value
c1cc(CN2CCCNCCNCCCNCC2)ccc1CN1CCCNCCNCCCNCC1 | NL4-3 | L-CA resistant | - | - | 0.02 µM
C#Cc1ccc(Nc2nccc(Oc3c(C)cc(-c4cn(Cc5ccccc5)nn4)cc3C)n2)cc1 | IIIB | Y181C | MTT | - | 1.42 µM
CC(C)Nc1cccnc1N1CCN(C(=O)c2cc3cc(NS(C)(=O)=O)ccc3[nH]2)CC1 | HXB2 | - | antigen | - | ~0.02 µM
O=C(N/N=C/c1ccccc1)c1csc(N2N=C(c3ccccc3)CC2c2ccc(Cl)cc2)n1 | IIIB | - | MTT / absorbance | - | >0.45 µM
Cc1c(Cl)cccc1-n1nnnc1SCC(=O)Nc1ccccc1[N+](=O)[O-] | - | - | p24 | 10% FBS | <0.008 µM
C#Cc1ccc(Nc2nccc(Oc3c(C)cc(-c4cn(CCCC(=O)OC)nn4)cc3C)n2)cc1 | IIIB | - | MTT | - | 0.18 µM
COc1ccc(/C=N/NC(=O)c2csc(N3N=C(c4ccccc4)CC3c3ccc(Cl)cc3)n2)cc1 | IIIB | - | MTT / absorbance | - | >125 µM
O=C(CSc1nnnn1-c1cc(Cl)ccc1Cl)Nc1ccccc1[N+](=O)[O-] | - | - | p24 | 10% FBS | <0.078 µM
Cc1cn([C@H]2C[C@H](N=[N+]=[N-])[C@@H](CO)O2)c(=O)[nH]c1=O | UG92029 (subtype A) | - | MTT | - | 0.001 µg/mL
Cc1cn([C@H]2C[C@H](N=[N+]=[N-])[C@@H](CO)O2)c(=O)[nH]c1=O | RES056 | - | MTT | - | 0.02 µM
Nc1ccn([C@H]2CC[C@@H](CO)O2)c(=O)n1 | Clinical isolate | - | - | clinical isolate | 0.4 µM
C#Cc1ccc(Nc2nccc(Oc3c(C)cc(-c4cn(Cc5cccc([N+](=O)[O-])c5)nn4)cc3C)n2)cc1 | IIIB | F227L and V106A | MTT | - | >101 µM
CC(C)(c1ncc(-c2ccc(Cl)cc2)o1)N1CCN(C[C@@H](O)C[C@@H](Cc2nnc(-c3ccccc3)o2)C(=O)N[C@H]2c3ccccc3OC[C@H]2O)[C@H](C(=O)NCC(F)(F)F)C1 | K-60 Clinical isolate | PR-L10I M46I I54V Q58E L63P I64V V77I V82F I84V L90M I93L | p24 | - | <0.008 µM
C#Cc1ccc(Nc2nccc(Oc3c(C)cc(-c4cn(-c5cccc(C(=O)OC)c5)nn4)cc3C)n2)cc1 | IIIB | - | MTT | - | 0.02 µM
CC(C)Nc1cccnc1N1CCN(C(=O)c2cc3cc(NS(C)(=O)=O)ccc3[nH]2)CC1 | - | RT-K103N | cytopathic effect / MTT | - | 2.5 µM
COc1ccccc1/C=N/NC(=O)c1csc(N2N=C(c3ccccc3)CC2c2ccc(Cl)cc2)n1 | IIIB | - | MTT / absorbance | - | >10.32 µM
Cc1cn([C@H]2C[C@H](N=[N+]=[N-])[C@@H](CO)O2)c(=O)[nH]c1=O | IIIB | - | p24 | - | 0.04 µM
C#Cc1ccc(Nc2nccc(Oc3c(C)cc(-c4cn(CC(=O)Nc5ccc(F)cc5)nn4)cc3C)n2)cc1 | RES056 | - | MTT | - | >1.41 µM
Nc1ccn([C@H]2CC[C@@H](CO)O2)c(=O)n1 | ROD | - | MTT | - | 0.123 µg/mL
O=C(N/N=C/c1ccc(Cl)cc1Cl)c1csc(N2N=C(c3ccccc3)CC2c2ccc(Cl)cc2)n1 | IIIB | - | MTT / absorbance | - | >94.9 µM
O=c1cc(Cl)nc(Sc2ccccc2)[nH]1 | IIIB | - | cytopathic effect / MTT | - | >186 µM
Cc1cn([C@H]2C=C[C@@H](CO)O2)c(=O)[nH]c1=O | EFV-resistant (RT K103R V179D P225H) | RT-K103R V179D P225H | cytopathic effect / MTT | - | 0.4 µM
CCC(C)Oc1cc(N)nc(Sc2ccc(Cl)cc2N)n1 | IIIB | - | cytopathic effect / MTT | - | >88 µM
Cc1nnc(C[C@H](C[C@H](O)CN2CCN(Cc3ccc(-c4ccc(Cl)cc4)o3)C[C@H]2C(=O)NCC(F)(F)F)C(=O)N[C@H]2c3ccccc3OC[C@H]2O)o1 | V-18 Clinical isolate | PR-L10I M36I N37D M46I R57K L63P A71V G73S I84V L90M I93L | p24 | - | <0.063 µM
CCCCSc1nc(Sc2ccc3ccccc3c2)cc(=O)[nH]1 | IIIB | - | cytopathic effect / MTT | - | ≥200 µM
Cc1ccnc2c1NC(=O)c1cccnc1N2C1CC1 | 39RW024 (subtype A) | - | MTT | - | 0.04 µg/mL
O=C(N/N=C/c1cccc([N+](=O)[O-])c1)c1csc(N2N=C(c3ccccc3)CC2c2ccc(Cl)cc2)n1 | IIIB | - | MTT / absorbance | - | >0.47 µM
CO[P@](=O)(c1cc(C)cc(/C=C/C#N)c1)c1c(C(N)=O)[nH]c2ccc(Cl)cc12 | IIIB | K103R/V179D/P225H | - | - | 0.025 µM
O=C(N[C@H]1c2ccccc2OC[C@H]1O)[C@H](Cc1nnco1)C[C@H](O)CN1CCN(Cc2ccc(-c3ccc(Cl)cc3)o2)C[C@H]1C(=O)NCC(F)(F)F | NL4-3 WT | - | p24 | - | <0.063 µM
Cc1ccnc2c1NC(=O)c1cccnc1N2C1CC1 | IIIB | Y181C | MTT | - | >15.02 µM
O=c1[nH]cnc2c1ncn2[C@H]1CC[C@@H](CO)O1 | NNRTI-resistant (RT K103N Y181C) | RT-K103N Y181C | cytopathic effect / MTT | - | 9 µM
CCC(C)Oc1cc(N)nc(Sc2ccccc2N)n1 | IIIB | - | cytopathic effect / MTT | - | >200 µM
Cc1ccc(-n2nnnc2SCC(=O)Nc2ccccc2[N+](=O)[O-])c(Br)c1 | - | - | p24 | 50% human serum | <0.062 µM
CCCc1nnc(C[C@H](C[C@H](O)CN2CCN(C(C)(C)c3ncc(-c4cncc(OC)c4)o3)C[C@H]2C(=O)NCC(F)(F)F)C(=O)N[C@H]2c3ccccc3OC[C@H]2O)o1 | Q-60 Clinical isolate | PR-L10I N37S R41K M46I I54V I62V L63P A71V V77I V82A L90M I93L | p24 | - | <0.5 µM
NNC(=O)c1csc(N2N=C(c3ccccc3)CC2c2ccc(Cl)cc2)n1 | IIIB | - | MTT / absorbance | - | >125 µM
Cc1cn([C@H]2C[C@H](N=[N+]=[N-])[C@@H](COC(=O)NCCSC(=O)OC[C@@H]3CC[C@H](n4cnc5c(=O)[nH]cnc54)O3)O2)c(=O)[nH]c1=O | NNRTI-resistant (RT Y181C) | RT-Y181C | cytopathic effect / MTT | - | 0.2 µM
CCc1cc(NCc2nc3c(Cl)ccc(Cl)c3o2)c(=O)[nH]c1C | NL4-3 | RT-V108I | p24 | - | 0.4 µM
CC(C)[C@H](NC(=O)N(C)Cc1ccccn1)C(=O)N[C@@H](Cc1ccccc1)[C@H](O)[C@@H](O)[C@H](Cc1ccccc1)NC(=O)[C@@H](NC(=O)N(C)Cc1ccccn1)C(C)C | IIIB | - | cytopathic effect / MTT | - | 0.17 µM
c1cc(CN2CCCNCCNCCCNCC2)ccc1CN1CCCNCCNCCCNCC1 | NL4-3 | L-CA resistant | cytopathic effect / MTT | - | 0.02 µM
CCC(C)Oc1cc(N)nc(Sc2ccc(OC)cc2)n1 | IIIB | - | cytopathic effect / MTT | - | >300 µM
Nc1ccn([C@H]2CC[C@@H](CO)O2)c(=O)n1 | HXB2D | - | RT activity | - | 0.44 µM
Cc1cc(C)c(-n2nnnc2SCC(=O)Nc2ccccc2[N+](=O)[O-])c(C)c1 | - | - | p24 | 10% FBS | <0.011 µM
CCC(C)Oc1cc(N)nc(S(=O)(=O)c2ccccc2)n1 | IIIB | - | cytopathic effect / MTT | - | >90 µM
O=C(N[C@H]1c2ccccc2OC[C@H]1O)[C@H](Cc1nnc(-c2ccccc2)o1)C[C@H](O)CN1CCN(Cc2ccc(-c3ccc(Cl)cc3)o2)C[C@H]1C(=O)NCC(F)(F)F | Q-60 Clinical isolate | PR-L10I N37S R41K M46I I54V I62V L63P A71V V77I V82A L90M I93L | p24 | - | <0.063 µM
Cc1ccnc2c1NC(=O)c1cccnc1N2C1CC1 | - | RT-D67N K70R T215Y K219Q A98G | - | - | <0.4 µM

6 of the rows above, restated:

| SMILES | strain | changes | method | setting | value |
|---|---|---|---|---|---|
| O=C(N/N=C/c1cccc([N+](=O)[O-])c1)c1csc(N2N=C(c3ccccc3)CC2c2ccc(Cl)cc2)n1 | IIIB | - | MTT / absorbance | - | >0.47 µM |
| C#Cc1ccc(Nc2nccc(Oc3c(C)cc(-c4cn(Cc5cccc([N+](=O)[O-])c5)nn4)cc3C)n2)cc1 | IIIB | F227L and V106A | MTT | - | >101 µM |
| Cc1ccc(-n2nnnc2SCC(=O)Nc2ccccc2[N+](=O)[O-])c(Br)c1 | - | - | p24 | 50% human serum | <0.062 µM |
| Cc1ccnc2c1NC(=O)c1cccnc1N2C1CC1 | - | RT-D67N K70R T215Y K219Q A98G | - | - | <0.4 µM |
| O=c1[nH]cnc2c1ncn2[C@H]1CC[C@@H](CO)O1 | NNRTI-resistant (RT K103N Y181C) | RT-K103N Y181C | cytopathic effect / MTT | - | 9 µM |
| Nc1ccn([C@H]2CC[C@@H](CO)O2)c(=O)n1 | ROD | - | MTT | - | 0.123 µg/mL |

ECn is the concentration giving n% inhibition of infection, replication or growth. Blank or dashed fields: not listed here.